Sequence variants of PSTVd loop 6 after infection

The measurements come from Wu et al. 2024 (doi:10.1371/journal.ppat.1012142).

The pool varies loop 6 of the PSTVd intermediate strain in the pattern UNNNCGNNNG; wild type is UGACCGCGAG (upper and lower strand joined, each 5' to 3', the first 5 letters being the upper strand, closing pairs included).

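Three N. benthamiana plants were inoculated with the whole mutant pool. Samples came from the inoculated region at 5 days, the leaf margin at 10 and upper systemic leaves at 12.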

Values are reads per thousand in the sample; higher means more abundant, 0 means not found. Each value is the mean of three plants. "Pool" is the share in the plasmid pool used as inoculum, on the same scale. The inoculated region was read from the minus strand, the other sites from the plus strand. Sequences that differ at fixed positions probably stem from PCR or sequencing errors, and defective variants can be carried along by functional ones. With 36,220-57,551 reads a sample, very low values are single reads. For reference, wild type rose from 20.7 per thousand in the pool to 195, 198, 203 (inoculated region), 629, 591, 734 (leaf margin) and 942, 870, 868 (systemic leaves).

For UGAGCGGGCG (pool 0.144) the result was inoculated region 0.0533; leaf margin 0.0247; systemic leaves 0.
For UCCACGUUCG (pool 0.366) the result was inoculated region 0.0650; leaf margin 0.0261; systemic leaves 0.
For UCCCCGAGGG (pool 0.144) the result was inoculated region 0.0715; leaf margin 0.00773; systemic leaves 0.
For UUUUCGGCCG (pool 0.144) the result was inoculated region 0.0727; leaf margin 0.0232; systemic leaves 0.
For UACCCGGAUG (pool 0.170) the result was inoculated region 0.0775; leaf margin 0; systemic leaves 0.
For UCUUCGAAUG (pool 0.327) the result was inoculated region 0.148; leaf margin 0.0155; systemic leaves 0.
For UCAUCGCUUG (pool 0.170) the result was inoculated region 0.0942; leaf margin 0; systemic leaves 0.
For UAGUCGCUGG (pool 0.196) the result was inoculated region 0.0540; leaf margin 0.00773; systemic leaves 0.
For UGUACGGGUG (pool 0.196) the result was inoculated region 0.605; leaf margin 0.124; systemic leaves 0.
For UCACCGGUUG (pool 0.170) the result was inoculated region 0.0894; leaf margin 0; systemic leaves 0.
For UUCCCGUACG (pool 0.131) the result was inoculated region 0.131; leaf margin 0.0169; systemic leaves 0.
For UCUUCGACAG (pool 0.235) the result was inoculated region 0.0840; leaf margin 0; systemic leaves 0.
For UCACCGGAUG (pool 0.196) the result was inoculated region 0.0949; leaf margin 0.0493; systemic leaves 0.
For UGGGCGAGCG (pool 0.170) the result was inoculated region 0.0587; leaf margin 0.00773; systemic leaves 0.
For UUGCCGUGAG (pool 0.379) the result was inoculated region 0.658; leaf margin 0.115; systemic leaves 0.
For UUGGCGACGG (pool 0.235) the result was inoculated region 0.0478; leaf margin 0.0169; systemic leaves 0.00599.
For UUGACGUCGG (pool 0.196) the result was inoculated region 0.125; leaf margin 0.0169; systemic leaves 0.
For UAAGCGAUUG (pool 0.314) the result was inoculated region 0.102; leaf margin 0; systemic leaves 0.
For UCGUCGUUAG (pool 0.405) the result was inoculated region 0.0776; leaf margin 0.00920; systemic leaves 0.
For UCUACGGUAG (pool 0.222) the result was inoculated region 0.0596; leaf margin 0.0552; systemic leaves 0.
For UAUGCGAAAG (pool 0.170) the result was inoculated region 0.0827; leaf margin 0.0169; systemic leaves 0.
For UUUACGCCCG (pool 0.340) the result was inoculated region 0.119; leaf margin 0.00920; systemic leaves 0.
For UACCCGCAUG (pool 0.235) the result was inoculated region 0.0835; leaf margin 0.00920; systemic leaves 0.
For UGAUCGUAGG (pool 0.248) the result was inoculated region 0.138; leaf margin 0; systemic leaves 0.
For UGCUCGGCUG (pool 0.144) the result was inoculated region 0.614; leaf margin 0.124; systemic leaves 0.
For UAUUCGUGAG (pool 0.288) the result was inoculated region 0.127; leaf margin 0.00920; systemic leaves 0.
For UAGUCGUGGG (pool 0.118) the result was inoculated region 0.0660; leaf margin 0; systemic leaves 0.
For UGGUCGCCUG (pool 0.261) the result was inoculated region 0.0712; leaf margin 0.00773; systemic leaves 0.
For UAAACGUCAG (pool 0.196) the result was inoculated region 0.553; leaf margin 0.0746; systemic leaves 0.0271.

2 of these entries, quoted again:

sequence	pool	inoculated region	leaf margin	systemic leaves
UUUACGCCCG	0.340	0.119	0.00920	0
UAUUCGUGAG	0.288	0.127	0.00920	0